# Measured values published in article PMC4347215 (Nature Communications, 2015).
# Target: NA of seasonal H1N1 virus A/Brisbane/59/2007 on virus (Influenza A virus A/Brisbane/59/2007 …, UniProt D5F1R0, strain)
# Experiment: ELISA; virus-coated plates; data not shown
# Settings: one partner purified
binder,measurement,value
"monoclonal antibody CD6 (whole IgG) (antibody, V domains shown, copies: 2 + 2) VH: QVKLQESGGGLVQPKGSLKLSCAASGFTFNTYAMNWVRQAPGKGLEWVARIRSKSNNYATFYADSVKDRFTISRDDSQSMLYLQMHNLKTDDTAMYYCVRPSIYYYASGYLDVWGAGTTVTVSS VL: QIVLSQSPAILSASPGEKVTMTCRTSSSVSYMHWYQQKPGSSPKPWIYATSNLASGVPFRFSGSGSGTSYSLTISRVEAEDAATYYCQQWNSNPPTFGGGTKLEIK",binding result,no binding
